Anti-infective test results gathered from many reports (values: NIAID ChemDB through PubChem).

All rows: host cell toxicity; endpoint: CC50

CCn is the concentration with n% toxicity to the cells. Neighbouring rows are from separate reports. An empty or dashed field is not shown.

{"smiles": "Cc1cc(-c2cc(C)on2)n(C)n1", "cell line": "MIT-4", "value": ">200 µM"}
{"smiles": "C[Si](C)(C)C#Cc1ccc2ccccc2n1", "read by": "MTT", "cell line": "CEM-4fx", "value": "1.8 µM"}
{"smiles": "OC(Cn1cncn1)(Cn1cncn1)c1ccc(F)cc1F", "cell line": "MIT-4", "value": ">200 µM"}
{"smiles": "CCCc1cnc(Cl)c(/C=C/C(=O)OCC)c1", "read by": "MTT", "cell line": "RAW 264.7", "value": "8 µM"}
{"smiles": "Nc1ccc(-c2cc3c(-c4ccnc(NC5CCC5)n4)ccc(NC4CCC4)n3n2)cc1", "cell line": "VERO 76", "value": "19 µM"}
{"smiles": "CC(C)c1c(OCC(O)CNCc2ccccc2)ccc2c1CCC1C(C)(C)CCC[C@]21C", "read by": "MTT", "cell line": "CHO", "value": "14.41 µM"}
{"smiles": "OC[C@H]1CC(n2cnc3c(NC4CC4)ncnc32)C[C@@H]1CO", "cell line": "E6SM", "value": ">200 µg/mL"}
{"smiles": "Cc1ccccc1C(c1ccccc1)S(=O)(=O)c1cccc[n+]1[O-]", "cell line": "HEL", "value": ">50 µg/mL"}
{"smiles": "O=C(/C=C/c1cc(-c2ccccc2)cnc1Cl)c1ccccc1", "read by": "MTT", "cell line": "RAW 264.7", "value": "102 µM"}
{"smiles": "CC(C)Oc1cccc(-c2ccc(C(=O)N(Cc3cccc(OCCCCCC(=O)OC(=O)O)c3)C(C)C)cc2)c1", "cell line": "RAJI", "value": ">20 µM"}
{"smiles": "CCCc1cc(=O)oc2cc(OS(=O)(=O)c3ccc(C)cc3)c3c(c12)OC(C)(C)C=C3", "read by": "neutral red", "cell line": "CV-1", "value": ">100 µg/mL"}
{"smiles": "c1cc(NC2CCCCC2)cc(-c2cc3c(-c4ccnc(NC5CCC5)n4)ccc(NC4CCC4)n3n2)c1", "cell line": "VERO 76", "value": ">40 µM"}
{"smiles": "CN1CCN(CC(O)COc2cccc3ccccc23)CC1", "read by": "MTT", "cell line": "CHO", "value": "261 µM"}
{"smiles": "O=S(=O)(Cc1ccc(-c2ccccc2)cc1)c1cccc[n+]1[O-]", "read by": "cell count", "cell line": "CEM", "value": "4.6 µg/mL"}
{"smiles": "Oc1ccc(-c2cc3c(-c4ccnc(NC5CCCC5)n4)ccc(NC4CCCC4)n3n2)cc1", "cell line": "VERO 76", "value": ">50 µM"}
{"smiles": "COC(=O)/C=C/c1ccc2ccccc2n1", "read by": "MTT", "cell line": "CEM-4fx", "value": ">100 µM"}
{"smiles": "Cc1cc(-c2c(N=O)c(C)nn2CCO)no1", "cell line": "MIT-4", "value": "13.5 µM"}
{"smiles": "Cc1ccc(Cl)c(C(C)S(=O)c2cccc[n+]2[O-])c1", "cell line": "HEL", "value": "0.067 µg/mL"}
{"smiles": "O=C/C=C/c1ccc2ccccc2n1", "read by": "MTT", "cell line": "CEM-4fx", "value": "1 µM"}
{"smiles": "Cc1cc(-c2n[nH]c(C)c2N=O)no1", "cell line": "MIT-4", "value": "26 µM"}
{"smiles": "CCCc1cc(=O)oc2cc(O)cc(O)c12", "cell line": "CV-1", "value": "10 µg/mL"}
{"smiles": "Nc1ncnc2c1ncn2C1C[C@H](CO)[C@@H](CO)C1", "cell line": "E6SM", "value": ">200 µg/mL"}
{"smiles": "Cc1cc(-c2cc(C)n(C)n2)no1", "cell line": "MIT-4", "value": ">200 µM"}
{"smiles": "CC(C)N(Cc1cccc(OCCCCCC(=O)OC(=O)O)c1)C(=O)c1ccc(-c2cccc(Br)c2)cc1", "cell line": "HE293", "value": ">20 µM"}
{"smiles": "Cc1ccc(C)c(C(C)S(=O)(=O)c2c(C)ccc[n+]2[O-])c1", "cell line": "HEL", "value": "38 µg/mL"}
{"smiles": "Nc1ccn(C[C@@H](CO)OCP(=O)(O)O)c(=O)n1", "read by": "neutral red", "cell line": "SupT1", "value": ">159 µM"}
{"smiles": "CN(C)c1ccnc(SCc2ccc(Cl)cc2)c1C#N", "cell line": "HEL", "value": ">100 µg/mL"}
{"smiles": "OC(CNCc1ccccc1)COc1cccc2ccccc12", "read by": "MTT", "cell line": "CHO", "value": "8.27 µM"}
{"smiles": "CCC(c1cc(C)ccc1C)S(=O)(=O)c1cccc[n+]1[O-]", "cell line": "HEL", "value": ">20 µg/mL"}
{"smiles": "CN1CCN(CC(O)COc2ccc3ccccc3c2)CC1", "read by": "MTT", "cell line": "CHO", "value": "148.7 µM"}
{"smiles": "O=c1[nH]cnc2c1ncn2C1C[C@H](CO)[C@@H](CO)C1", "cell line": "E6SM", "value": ">200 µg/mL"}
{"smiles": "COc1ccc(-c2cc(C(=O)O)c3ccccc3n2)cc1OC", "cell line": "RAJI", "value": ">20 µM"}
{"smiles": "CC(C)Nc1nc2cc(Cl)c(Cl)cc2n1[C@H]1O[C@@H](CO)[C@H](O)[C@@H]1O", "cell line": "SupT1", "value": ">105 µM"}
{"smiles": "O=C(O)c1cccc(-c2cc3c(-c4ccnc(NC5CCCC5)n4)ccc(NC4CCCC4)n3n2)c1", "cell line": "VERO 76", "value": ">40 µM"}
{"smiles": "Cc1ccc(C)c(C(Cc2ccccc2)S(=O)(=O)c2cccc[n+]2[O-])c1", "cell line": "HEL", "value": "19 µg/mL"}
{"smiles": "CCCc1cc(=O)oc2c3c(c4c(c12)OC(C)(C)[C@H](O)[C@H]4OC(=O)c1cccc(Cl)c1)O[C@H](C)[C@@H](C)C3=O", "read by": "neutral red", "cell line": "CV-1", "value": "2 µg/mL"}
{"smiles": "O=[N+]([O-])c1ccc[n+]([O-])c1SCc1ccccc1", "cell line": "HEL", "value": "31 µg/mL"}
{"smiles": "CC(C)c1c(OCC(O)CN2CCOCC2)ccc2c1CCC1C(C)(C)CCC[C@]21C", "read by": "MTT", "cell line": "CHO", "value": "5.61 µM"}
{"smiles": "CONC(=O)c1cccc[n+]1[O-]", "read by": "MTT", "cell line": "Huh-luc/neo 7", "value": "900 µM"}
{"smiles": "Cc1ccc([N+](=O)[O-])cc1CS(=O)(=O)c1cccc[n+]1[O-]", "read by": "cell count", "cell line": "CEM", "value": "57 µg/mL"}
{"smiles": "CC(C)c1c(O)ccc2c1CCC1C(C)(C)CCC[C@]21C", "read by": "MTT", "cell line": "CHO", "value": "170 µM"}
{"smiles": "C/C(=N\\NC(=O)c1ccc([N+](=O)[O-])cc1)c1cccc(/C(C)=N/NC(=O)c2ccc([N+](=O)[O-])cc2)n1", "read by": "MTT", "cell line": "HL-60", "value": "2.6 µM"}
{"smiles": "CCOC(=O)CC(=O)NCC(OCC)(OCC)c1ccc2c(c1)OCO2", "cell line": "HEK 293", "value": "<7.5 µM"}
{"smiles": "Cc1ccc(C)c(CS(=O)(=O)c2c(O)ccc[n+]2[O-])c1", "cell line": "HEL", "value": ">20 µg/mL"}
{"smiles": "CC1(C)CC[C@@]2(C(=O)NCc3cn(CCCCCCn4cc(CNC(=O)[C@]56CCC(C)(C)CC5C5=CCC7[C@@]8(C)CC[C@H](O)C(C)(C)C8CC[C@@]7(C)[C@]5(C)C[C@H]6O)nn4)nn3)C(C1)C1=CCC3[C@@]4(C)CC[C@H](O)C(C)(C)C4CC[C@@]3(C)[C@]1(C)C[C@H]2O", "read by": "resazurin", "cell line": "293T", "value": ">100 µM"}
{"smiles": "Cc1ccc(C)c(CS(=O)c2ccc(Cl)c[n+]2[O-])c1", "read by": "cell count", "cell line": "CEM", "value": "14 µg/mL"}
{"smiles": "OC(c1ccc2ccccc2n1)C1CC1", "read by": "MTT", "cell line": "CEM-4fx", "value": "20.4 µM"}
{"smiles": "Cc1ccc(C)c(C(Sc2cccc[n+]2[O-])c2ccccc2)c1", "read by": "cell count", "cell line": "CEM", "value": "34 µg/mL"}
{"smiles": "CCOC(=O)/C=C/c1cc(-c2ccccc2)cnc1Cl", "read by": "MTT", "cell line": "RAW 264.7", "value": "21 µM"}
{"smiles": "COc1ccc(OC)c(CS(=O)c2cccc[n+]2[O-])c1", "read by": "cell count", "cell line": "CEM", "value": "≥100 µg/mL"}
{"smiles": "CCOC(=O)CCCCCOc1cccc(CN(C(=O)c2ccc(-c3ccc(C(C)=O)s3)cc2)C(C)C)c1", "cell line": "RAJI", "value": ">20 µM"}
{"smiles": "CCCCn1nc(C)c(N=O)c1-c1cc(C)on1", "cell line": "MIT-4", "value": "15 µM"}
{"smiles": "CC(C)c1cc(CS(=O)(=O)c2cccc[n+]2[O-])c(C(C)C)cc1Br", "cell line": "HEL", "value": "4.4 µg/mL"}
{"smiles": "CCCc1cc(=O)oc2cc(OCC(C)(C)C(=O)O)c3c(c12)OC(C)(C)C=C3", "cell line": "CV-1", "value": "10 µg/mL"}
{"smiles": "CC1(C)CC[C@@]2(C(=O)NCc3cn(CCOCCn4cc(CNC(=O)[C@]56CCC(C)(C)CC5C5=CCC7[C@@]8(C)CC[C@H](O)C(C)(C)C8CC[C@@]7(C)[C@]5(C)C[C@H]6O)nn4)nn3)C(C1)C1=CCC3[C@@]4(C)CC[C@H](O)C(C)(C)C4CC[C@@]3(C)[C@]1(C)C[C@H]2O", "read by": "resazurin", "cell line": "293T", "value": ">100 µM"}
{"smiles": "CCCc1cc(=O)oc2cc(O)c3c(c12)OC(C)(C)C=C3", "read by": "neutral red", "cell line": "CV-1", "value": "2 µg/mL"}
{"smiles": "CC(C)N(Cc1cccc(OCCCCCC(=O)OC(=O)O)c1)C(=O)c1ccc(-c2ccc3ccccc3c2)cc1", "cell line": "HepG2", "value": ">20 µM"}
{"smiles": "Cc1ccc(C)c(C(C)S(=O)(=O)c2cccc[n+]2[O-])c1", "read by": "cell count", "cell line": "CEM", "value": ">100 µg/mL"}
{"smiles": "COC(=O)[C@H]1[C@@H]2C[C@@H](O[C@@H]3O[C@H](C)[C@@H](O)[C@H](N)[C@@H]3O)/C=C/C=C/C=C/C=C/C=C/C=C/C=C/[C@H](C)[C@@H](O)[C@H](C)[C@H](C)OC(=O)C[C@H](O)C[C@H](O)[C@@H](O)CC[C@H](O)C[C@H](O)C[C@](O)(C[C@@H]1O)O2", "cell line": "MIT-4", "value": ">200 µM"}
{"smiles": "CCN(CC)CC(O)COc1ccc2c(c1C(C)C)CCC1C(C)(C)CCC[C@]21C", "read by": "MTT", "cell line": "CHO", "value": "7.73 µM"}
{"smiles": "CCn1nc(-c2cc(C)on2)c(N=O)c1C", "cell line": "MIT-4", "value": "9.5 µM"}
{"smiles": "CCOC(=O)/C(=C\\c1cc(-c2ccccc2)cnc1Cl)C(=O)c1ccccc1", "read by": "MTT", "cell line": "RAW 264.7", "value": "68 µM"}
{"smiles": "Cc1ccc(C)c(C(C(N)=O)S(=O)(=O)c2cccc[n+]2[O-])c1", "read by": "cell count", "cell line": "CEM", "value": "≥100 µg/mL"}
{"smiles": "CC(C)c1c(OCC(O)CN2CCCCC2)ccc2c1CCC1C(C)(C)CCC[C@]21C", "read by": "MTT", "cell line": "CHO", "value": "2.99 µM"}
{"smiles": "C=CCCC(=O)NC[C@H](O)c1ccc2c(c1)OCO2", "cell line": "BJ", "value": "<7.5 µM"}
{"smiles": "O=S(=O)(Cc1ccc(F)cc1)c1cccc[n+]1[O-]", "read by": "cell count", "cell line": "CEM", "value": "24 µg/mL"}

A second listing of 8 rows from above:

smiles	read by	cell line	value
Nc1ccc(-c2cc3c(-c4ccnc(NC5CCC5)n4)ccc(NC4CCC4)n3n2)cc1	-	VERO 76	19 µM
CCN(CC)CC(O)COc1ccc2c(c1C(C)C)CCC1C(C)(C)CCC[C@]21C	MTT	CHO	7.73 µM
CONC(=O)c1cccc[n+]1[O-]	MTT	Huh-luc/neo 7	900 µM
OC(Cn1cncn1)(Cn1cncn1)c1ccc(F)cc1F	-	MIT-4	>200 µM
Cc1ccc(C)c(C(C)S(=O)(=O)c2cccc[n+]2[O-])c1	cell count	CEM	>100 µg/mL
CCCc1cc(=O)oc2cc(OS(=O)(=O)c3ccc(C)cc3)c3c(c12)OC(C)(C)C=C3	neutral red	CV-1	>100 µg/mL
Cc1ccc(Cl)c(C(C)S(=O)c2cccc[n+]2[O-])c1	-	HEL	0.067 µg/mL
CC(C)c1c(OCC(O)CNCc2ccccc2)ccc2c1CCC1C(C)(C)CCC[C@]21C	MTT	CHO	14.41 µM